Compound potency records, mixed from different reports. Data source: NIAID ChemDB in PubChem.

All rows: growth or infection tests; organism: HIV-1; read by: MTT; read-out: EC50

An empty or dashed field is not shown. ECn: concentration that inhibits the pathogen or its effect by n%. Rows are shuffled and stem from different studies.

CCOCn1c(Cc2cc(C(F)(F)F)cc(C(F)(F)F)c2)c(CC)c(=O)[nH]c1=O ; cells: MT-4 ; strain or isolate: A17 ; mutations: K103N + Y181C ; value: >100 µM
COc1ccc(Nc2c([N+](=O)[O-])ncn2CC2=CC(=O)C(=O)CN2C)cc1 ; cells: MT-4 ; strain or isolate: IIIB ; value: >250 µM
CC(C)C[C@H]1NC(=O)C(Cc2c[nH]c3c(C45C[C@H]6C(=O)N[C@H](Cc7ccccc7)C(=O)N6[C@H]4Nc4ccccc45)cccc23)NC1=O ; cells: C8166 ; value: 47.6 µM
C#CCOCn1c(Cc2c(F)c(F)cc(F)c2F)c(CC)c(=O)[nH]c1=O ; cells: MT-4 ; strain or isolate: EFV-resistant (K103R V179D P225H) ; value: >5 µM
CCOCn1c(C(=O)c2cccc(C#N)c2)c(CC)c(OC)nc1=O ; cells: MT-4 ; strain or isolate: IIIB ; mutations: K103N + Y181C ; value: >100 µM
C#CCOCn1c(Cc2cccc(F)c2)c(CC)c(=O)[nH]c1=O ; cells: MT-4 ; strain or isolate: N119 (Y181C) ; value: >20 µM
Cc1ccc2sn(/N=C/c3ccc([N+](=O)[O-])cc3)c(=O)c2c1 ; cells: MT-4 ; value: >100 µM
Cc1cc(/C=C/C#N)cc(C)c1Oc1nc(NC2CCN(Cc3cccc(C#N)c3)CC2)nc2ccsc12 ; cells: MT-4 ; strain or isolate: IIIB ; mutations: NNRTI-resistant (RT L100I) ; value: 0.00804 µM
COc1ccc(Nc2nnc(C(NS(=O)(=O)c3ccc(C)cc3)C(C)C)s2)cc1 ; cells: MT-4 ; strain or isolate: IIIB ; value: >16.99 µM
Cc1cc(/C=C/C#N)cc(C)c1Oc1nc(NC2CCN(Cc3ccc(F)cc3)CC2)nc2ccsc12 ; cells: MT-4 ; strain or isolate: IIIB ; mutations: NNRTI-resistant (RT K103N) ; value: 0.00638 µM
Cc1ccc2sn(/N=C/c3ccccc3F)c(=O)c2c1 ; cells: MT-4 ; value: >18 µM
Nc1ncn([C@@H]2CC[C@H](CO)O2)c(=O)n1 ; cells: MT-4 ; strain or isolate: RF ; value: >471 µM
CN1CC(=O)C(=O)C=C1Cn1cnc([N+](=O)[O-])c1Sc1ccc(Cl)cc1 ; cells: MT-4 ; strain or isolate: IIIB ; value: >3.6 µM
Cc1cc(C#N)cc(C)c1Oc1nc(NC2CCN(Cc3ccc(S(N)(=O)=O)cc3)CC2F)nc2ccsc12 ; cells: MT-4 ; strain or isolate: IIIB ; mutations: NNRTI-resistant (RT E138K) ; value: 0.0174 µM
CCc1c(C(=O)c2cccc(C#N)c2)n(Cc2cccc(C#N)c2)c(=O)[nH]c1=O ; cells: MT-4 ; strain or isolate: IIIB ; value: 0.2 µM
C=CCOCn1c(Cc2cccc(C(F)(F)F)c2)c(C(C)C)c(=O)[nH]c1=O ; cells: MT-4 ; strain or isolate: EFV-resistant (K103R V179D P225H) ; value: >39 µM
CN1CC(=O)C(=O)C=C1Cn1cnc([N+](=O)[O-])c1Nc1ccccc1 ; cells: MT-4 ; strain or isolate: IIIB ; value: >250 µM
COc1ccc(Nc2nnc(C(NS(=O)(=O)c3ccc(OC)cc3)C(C)C)s2)cc1 ; cells: MT-4 ; strain or isolate: IIIB ; value: >21.03 µM
C=CS(=O)(=O)N1CCCC(NS(=O)(=O)c2c(C(N)=O)[nH]c3ccc(Br)cc23)C1 ; cells: MT-4 ; strain or isolate: IIIB ; mutations: Y181C ; value: 5.32 µM
Cc1cc(/C=C/C#N)cc(C)c1Oc1nc(NC2CCN(Cc3cccc(Cl)c3)CC2)nc2ccsc12 ; cells: MT-4 ; strain or isolate: IIIB ; mutations: NNRTI-resistant (RT L100I) ; value: 0.03 µM
CCOCn1c(Cc2c(F)ccc(F)c2F)c(CC)c(=O)[nH]c1=O ; cells: MT-4 ; strain or isolate: A17 ; mutations: K103N + Y181C ; value: 87 µM
CN1CC(=O)C(=O)C=C1Cn1cnc([N+](=O)[O-])c1Nc1ccc(Br)cc1 ; cells: MT-4 ; strain or isolate: IIIB ; value: >6.8 µM
Cc1cc(C#N)cc(C)c1Oc1nc(NC2CCN(Cc3ccc(S(C)(=O)=O)cc3)CC2)nc2sccc12 ; cells: MT-4 ; strain or isolate: IIIB ; mutations: NNRTI-resistant (RT Y188L) ; value: 0.0096 µM
NC(=O)c1c[nH]c(Cc2ccccc2)cc1=O ; cells: C8166 ; value: >100 µM
COc1ccc(/C=N/n2sc3ccccc3c2=O)cc1 ; cells: MT-4 ; mutations: EFV-resistant (K103 V179D P225H) ; value: >19 µM
Nc1ccn([C@H]2CC[C@@H](CO)O2)c(=O)n1 ; cells: MT-4 ; strain or isolate: RF ; value: 0.189 µM
COc1ccc(Nc2nnc(C(C)NS(=O)(=O)c3ccc(C)cc3)s2)cc1 ; cells: MT-4 ; strain or isolate: IIIB ; value: >41 µM
Cc1ccc2sn(/N=C/c3cccc(F)c3)c(=O)c2c1 ; cells: MT-4 ; value: >30 µM
CCOCn1c(C(=O)c2cccc(C#N)c2)c(CC)c(=O)[nH]c1=O ; cells: MT-4 ; strain or isolate: IIIB ; value: 0.1 µM
C=CCOCn1c(Cc2cc(C(F)(F)F)cc(C(F)(F)F)c2)c(C(C)C)c(=O)[nH]c1=O ; cells: MT-4 ; strain or isolate: EFV-resistant (K103R V179D P225H) ; value: >100 µM
CC(NS(=O)(=O)c1ccc(Cl)cc1)c1nnc(Nc2ccc(F)cc2)s1 ; cells: MT-4 ; strain or isolate: IIIB ; value: >6.85 µM
COc1ccc(/C=N/n2sc3ccc(C)cc3c2=O)cc1 ; cells: MT-4 ; mutations: Y181C ; value: >55 µM
CC(NS(=O)(=O)c1ccc(Cl)cc1)c1nnc(Nc2ccc(Br)cc2)s1 ; cells: MT-4 ; strain or isolate: IIIB ; value: >4.09 µM
Nc1ccn([C@H]2CC[C@H](CO)O2)c(=O)n1 ; cells: MT-4 ; strain or isolate: RF ; value: >473 µM
O=c1c2ccccc2sn1/N=C/c1ccccc1Cl ; cells: MT-4 ; value: 20 µM
CN1CC(=O)C(=O)C=C1Cn1cnc([N+](=O)[O-])c1Nc1cc(Cl)cc(Cl)c1 ; cells: MT-4 ; strain or isolate: IIIB ; value: >7.3 µM
Cc1ccc2sn(/N=C/c3cccc([N+](=O)[O-])c3)c(=O)c2c1 ; cells: MT-4 ; value: 48 µM
Nc1ncn([C@H]2CC[C@H](CO)O2)c(=O)n1 ; cells: MT-4 ; strain or isolate: RF ; value: >471 µM
CCOC(=O)c1ccc(CN2CCC(Nc3nc(Oc4c(C)cc(/C=C/C#N)cc4C)c4sccc4n3)CC2)cc1 ; cells: MT-4 ; strain or isolate: IIIB ; mutations: NNRTI-resistant (RT Y181C) ; value: 0.0329 µM
Cc1ccc2sn(/N=C/c3ccccc3O)c(=O)c2c1 ; cells: MT-4 ; mutations: K103N + Y181C ; value: >30 µM

Repeating the first 3 entries:

| structure | cells | strain or isolate | mutations | value |
|---|---|---|---|---|
| CCOCn1c(Cc2cc(C(F)(F)F)cc(C(F)(F)F)c2)c(CC)c(=O)[nH]c1=O | MT-4 | A17 | K103N + Y181C | >100 µM |
| COc1ccc(Nc2c([N+](=O)[O-])ncn2CC2=CC(=O)C(=O)CN2C)cc1 | MT-4 | IIIB |  | >250 µM |
| CC(C)C[C@H]1NC(=O)C(Cc2c[nH]c3c(C45C[C@H]6C(=O)N[C@H](Cc7ccccc7)C(=O)N6[C@H]4Nc4ccccc45)cccc23)NC1=O | C8166 |  |  | 47.6 µM |